Pooled drug test results. Numbers come from NIAID ChemDB, via PubChem.

Shared fields: target-level tests; species: HIV-1; target: Reverse transcriptase; measure: IC50

Lines come from different laboratories, so protocols vary. a–b is a range or a potency band. ICn is the concentration giving n% inhibition. Blank or dashed fields: not listed here.

{"structure": "NS(=O)(=O)c1ccc(NC(=O)CSc2nnc(Cl)n2-c2ccc(C3CC3)c3ccccc23)c(Cl)c1", "changes": "RT-Y181C", "method": "nucleotide incorporation / radiometric", "result": "<0.05 µM"}
{"structure": "CCN1c2ncc(CCOc3ccc(CC(=O)NN)c4ccccc34)cc2C(=O)N(C)c2ccc(Cl)nc21", "changes": "RT-K103N Y181C", "method": "nucleotide incorporation / radiometric", "result": "<0.1 µM"}
{"structure": "CCc1ccc(-n2c(Br)nnc2SCC(=O)Nc2ccc(C(=O)N[C@@H](CO)C(=O)OC)cc2Cl)c2ccccc12", "method": "nucleotide incorporation / radiometric", "result": "<0.05 µM"}
{"structure": "CCN1c2ncc(CCOc3ccc(CC(C)C(=O)O)c4ccccc34)cc2C(=O)N(C)c2ccc(F)nc21", "changes": "RT-K103N Y181C", "method": "nucleotide incorporation / radiometric", "result": "0.1–1 µM"}
{"structure": "CC(C)(C#Cc1ccc(NC(=O)CSc2nnnn2-c2ccc(C3CC3)cc2Cl)c(Cl)c1)NC(=O)CCC(=O)O", "strain": "WT", "method": "PicoGreen / fluorescence", "result": "<1 µM"}
{"structure": "Cc1ccc(-n2c(SCC(=O)Nc3ccc(S(=O)(=O)NCCN4CCOCC4)cc3Cl)nnc2C(F)F)c2c1CCCC2", "changes": "RT-Y188L", "method": "nucleotide incorporation / radiometric", "result": ">0.1 µM"}
{"structure": "CCN1c2ncc(CCOc3ccc(-c4cc[n+]([O-])c(C)c4)cc3C)cc2C(=O)N(C)c2cccnc21", "strain": "IIIB", "method": "nucleotide incorporation / radiometric", "result": "<0.05 µM"}
{"structure": "CCc1ccc(-n2c(I)nnc2SCC(=O)Nc2ccc(S(N)(=O)=O)cc2Cl)c2ccccc12", "changes": "RT-Y188L", "method": "nucleotide incorporation / radiometric", "result": ">0.1 µM"}
{"structure": "CCN1c2ncc(CCOc3ccc(C(=O)O)c4ccccc34)cc2C(=O)N(C)c2ccc(C)nc21", "strain": "WT", "method": "nucleotide incorporation / radiometric", "result": "<0.1 µM"}
{"structure": "CCN1c2ncc(CCOc3ccc(C(=O)Nc4ccc(CC(=O)O)cc4)cc3C)cc2C(=O)N(C)c2cccnc21", "strain": "IIIB", "changes": "RT-K103N Y181C", "method": "nucleotide incorporation / radiometric", "result": "<0.05 µM"}
{"structure": "CC(C)(C)c1ccc(-n2nnnc2SCC(=O)Nc2ccc(OCC(=O)NC3CCOCC3)cc2Cl)c(Cl)c1", "changes": "RT-K103 Y181C", "method": "PicoGreen / fluorescence", "result": "<1 µM"}
{"structure": "COC(=O)c1ccc2c(c1)CN(c1nn3c(C)nnc3c3ccccc13)CC2", "strain": "KER2008", "method": "RT activity / fluorescence", "result": "3.91 µM"}
{"structure": "O=C(CSc1nnc(Br)n1-c1c(Cl)cc(C2CCC2)c2ccccc12)Nc1ccc(C(=O)O)cc1Cl", "changes": "RT-Y188L", "method": "nucleotide incorporation / radiometric", "result": "0.05–0.1 µM"}
{"structure": "CC(C)(C)c1ccc(-n2nnnc2SCC(=O)Nc2ccc(C(=O)NCCc3ccc(O)c(O)c3)cc2Cl)c(Cl)c1", "changes": "RT-K103 Y181C", "method": "PicoGreen / fluorescence", "result": "<1 µM"}
{"structure": "CCc1ccc(-n2c(Br)nnc2SCC(=O)Nc2ccc(C(=O)NCCN(C)C)cc2Cl)c2ccccc12", "method": "nucleotide incorporation / radiometric", "result": "<0.05 µM"}
{"structure": "Cc1nnc2c3ccccc3c(N3CCc4cccnc4C3)nn12", "strain": "98US_MSC5016", "method": "RT activity / fluorescence", "result": "2.18 µM"}
{"structure": "CC(C)(C)c1ccc(-n2nnnc2SCC(=O)Nc2ccc(NC(=O)Cc3ccccc3)cc2Cl)c(Cl)c1", "changes": "RT-K103 Y181C", "method": "PicoGreen / fluorescence", "result": "<1 µM"}
{"structure": "CCN1c2ncc(CCOc3ccc(-c4c[n+]([O-])ccc4C)cc3C)cc2C(=O)N(C)c2cccnc21", "strain": "IIIB", "changes": "RT-K103N Y181C", "method": "nucleotide incorporation / radiometric", "result": "<0.05 µM"}
{"structure": "CC(C)(C#Cc1ccc(NC(=O)CSc2nnnn2-c2ccc(CC3CC3)cc2Cl)c(Cl)c1)C(=O)O", "changes": "RT-K103 Y181C", "method": "PicoGreen / fluorescence", "result": "<1 µM"}
{"structure": "COc1ccc2c(C)ccc(-n3c(Br)nnc3SCC(=O)Nc3ccc(S(N)(=O)=O)cc3Br)c2c1", "changes": "RT-Y181C", "method": "nucleotide incorporation / radiometric", "result": "<0.05 µM"}
{"structure": "CCN1c2ncc(CCOc3ccc(CC(C)C(=O)O)c4ccccc34)cc2C(=O)N(C)c2ccc(C)nc21", "changes": "RT-Y188L", "method": "nucleotide incorporation / radiometric", "result": ">1 µM"}
{"structure": "O=C(O)Cc1ccc(-c2ccc(NC(=O)CSc3nnnn3-c3ccc(C(F)(F)F)cc3Cl)c(Cl)c2)cc1", "changes": "RT-K103 Y181C", "method": "PicoGreen / fluorescence", "result": "<1 µM"}
{"structure": "Cc1nnc2c3ccccc3c(N3CCc4ccc(C(=O)O)cc4C3)nn12", "strain": "KER2008", "method": "RT activity / fluorescence", "result": "16.1 µM"}
{"structure": "Cc1cc(S(N)(=O)=O)ccc1NC(=O)C(C)Sc1nnc(Br)n1-c1c(C)ccc2ccccc12", "changes": "RT-Y181C", "method": "nucleotide incorporation / radiometric", "result": "<0.05 µM"}
{"structure": "CC(C)(C#Cc1ccc(NC(=O)CSc2nnnn2-c2ccc(C3CC3)cc2Cl)c(Cl)c1)NC(=O)CN1CCC(O)CC1", "strain": "WT", "method": "PicoGreen / fluorescence", "result": "<1 µM"}
{"structure": "Cc1ccc(-n2c(SCC(=O)Nc3ccc(S(=O)(=O)NCCC(=O)O)cc3Cl)nnc2C(F)F)c2c1CCCC2", "changes": "RT-Y181C", "method": "nucleotide incorporation / radiometric", "result": ">0.1 µM"}
{"structure": "CC(C)(C)c1ccc(-n2nnnc2SCC(=O)Nc2ccc(NC(=O)Cc3ccsc3)cc2Cl)c(Cl)c1", "strain": "WT", "method": "PicoGreen / fluorescence", "result": "<1 µM"}
{"structure": "CC(C)c1nnc2c3ccccc3c(N3CCc4ccccc4C3)nn12", "strain": "KER2008", "method": "RT activity / fluorescence", "result": "8.55 µM"}
{"structure": "CC(C)(C)c1ccc(-n2nnnc2SCC(=O)Nc2ccc(C#CCOC(N)=O)cc2Cl)c(Cl)c1", "changes": "RT-K103 Y181C", "method": "PicoGreen / fluorescence", "result": "<1 µM"}
{"structure": "NS(=O)(=O)c1ccc(NC(=O)CSc2nncn2-c2ccc(C3CC3)c3ccccc23)c(Cl)c1", "method": "nucleotide incorporation / radiometric", "result": "<0.05 µM"}
{"structure": "CC(C)(C#Cc1ccc(NC(=O)CSc2nnnn2-c2cc(C3CC3)ccc2Cl)c(Cl)c1)NC(=O)c1cc[n+]([O-])cc1", "strain": "WT", "method": "PicoGreen / fluorescence", "result": "<1 µM"}
{"structure": "CCN1c2ncc(CCOc3ccc(NC(=O)NCC(=O)O)cc3C)cc2C(=O)N(C)c2cccnc21", "strain": "IIIB", "method": "nucleotide incorporation / radiometric", "result": "<0.05 µM"}
{"structure": "CCc1cc(NCc2nc3c(C)ccc(C)c3o2)c(=O)[nH]c1C", "changes": "RT-Y188F", "method": "nucleotide incorporation", "result": "0.047 µM"}
{"structure": "CCc1ccc(-n2c(SCC(=O)Nc3ccc(C(=O)O)cc3Cl)nnc2C(F)F)c2ccccc12", "method": "nucleotide incorporation / radiometric", "result": "<0.05 µM"}
{"structure": "COc1cc2c(cc1[N+](=O)[O-])CN(c1nn3c(C4CC4)nnc3c3ccccc13)CC2", "strain": "IIIB", "method": "RT activity / fluorescence", "result": "29.8 µM"}
{"structure": "CC(C)(C#Cc1ccc(NC(=O)CSc2nnnn2-c2ccc(C(C)(C)C)cc2Cl)c(Cl)c1)OCC(=O)NCC(=O)O", "changes": "RT-K103 Y181C", "method": "PicoGreen / fluorescence", "result": "<1 µM"}
{"structure": "O=C(CSc1nnc(Br)n1-c1ccc(C2CC2)cc1C(F)(F)F)Nc1ccc(C(=O)O)cc1Cl", "method": "nucleotide incorporation / radiometric", "result": "<0.05 µM"}
{"structure": "O=C(CSc1nnnn1-c1ccc(C2CC2)cc1Cl)Nc1ccc(C#CC(O)(C(F)(F)F)C(F)(F)F)cc1Cl", "strain": "WT", "method": "PicoGreen / fluorescence", "result": "<1 µM"}
{"structure": "Cc1cc(S(N)(=O)=O)ccc1NC(=O)CSc1nnc(Br)n1-c1ccc(F)c2ccccc12", "changes": "RT-Y188L", "method": "nucleotide incorporation / radiometric", "result": ">0.1 µM"}
{"structure": "CC(C)(N)C#Cc1ccc(NC(=O)CSc2nnnn2-c2cc(C(C)(C)C)ccc2Cl)c(Cl)c1", "strain": "WT", "method": "PicoGreen / fluorescence", "result": "<1 µM"}
{"structure": "Cc1cc(C2CC2)ccc1-n1c(Br)nnc1SCC(=O)Nc1ccc(S(N)(=O)=O)cc1Cl", "method": "nucleotide incorporation / radiometric", "result": "<0.05 µM"}
{"structure": "CN(C)CCCC(=O)NC(C)(C)C#Cc1ccc(NC(=O)CSc2nnnn2-c2cc(C(F)(F)F)ccc2Cl)c(Cl)c1F", "strain": "WT", "method": "PicoGreen / fluorescence", "result": "<1 µM"}
{"structure": "Cc1nnc2c3ccccc3c(N3CCc4c(F)cccc4C3)nn12", "strain": "98US_MSC5016", "method": "RT activity / fluorescence", "result": "4.32 µM"}
{"structure": "O=C(CSc1nnnn1-c1ccc(C2CC2)cc1Cl)Nc1ccc(-c2ccc(OCCN3CCCCC3)cc2)cc1Cl", "strain": "WT", "method": "PicoGreen / fluorescence", "result": "<1 µM"}
{"structure": "CC[C@H](C)[C@H](NC(=O)c1ccc(NC(=O)CSc2nnc(Br)n2-c2ccc(C3CC3)c3ccccc23)c(Cl)c1)C(=O)O", "changes": "RT-Y188L", "method": "nucleotide incorporation / radiometric", "result": "0.05–0.1 µM"}

3 of the rows above, restated:

structure | strain | changes | method | result
CC(C)(C)c1ccc(-n2nnnc2SCC(=O)Nc2ccc(NC(=O)Cc3ccsc3)cc2Cl)c(Cl)c1 | WT | - | PicoGreen / fluorescence | <1 µM
O=C(CSc1nnc(Br)n1-c1c(Cl)cc(C2CCC2)c2ccccc12)Nc1ccc(C(=O)O)cc1Cl | - | RT-Y188L | nucleotide incorporation / radiometric | 0.05–0.1 µM
CCN1c2ncc(CCOc3ccc(C(=O)O)c4ccccc34)cc2C(=O)N(C)c2ccc(C)nc21 | WT | - | nucleotide incorporation / radiometric | <0.1 µM